Patent US10173974B1, “Natural product-based synthesis of novel anti-infective isothiocyanate- and isoselenocyanate-functionalized amphilectane diterpenes” (priority 2015, dated 2019)

Key:
Mtb H37Rv (ATCC 27 294) = experiment: Microplate Alamar blue assay (MABA), antitubercular activity; assay type: cell-based, Mycobacterium tuberculosis
[1] = tested on: P. falciparum Dd2 (drug resistant); experiment: SYBR Green parasite proliferation assay, P. falciparum Dd2 strain; assay type: cell-based, Plasmodium falciparum
[2] = tested on: P. falciparum 3D7 (chloroquine-sensitive); experiment: SYBR Green parasite proliferation assay, P. falciparum 3D7 strain; assay type: cell-based, Plasmodium falciparum
[3] = Selectivity index, Vero cells vs Mtb H37Rv
[4] = Selectivity index, Vero cells vs Dd2 (CQ-resistant strain)
[5] = Selectivity index, Vero cells vs 3D7 (CQ-sensitive strain)

Row | SMILES | SI (c): IC50 Vero / MIC M. tuberculosis H37Rv (Mtb H37Rv (ATCC 27 294); [3]) | SI (a): IC50 Vero / IC50 Dd2 [1, 4] | SI (b): IC50 Vero / IC50 3D7 [2, 5] | SI (a): IC50 Vero / IC50 Dd2 [1] | SI (b): IC50 Vero / IC50 3D7 [2] | SI (c): IC50 Vero / MIC M. tuberculosis H37Rv (Mtb H37Rv (ATCC 27 294))
1 | [C-]#[N+]C(C)(C)CC1CC(C)C2CCC(C)C3([N+]#[C-])CCC(=C)C1C23 (single isomer, unassigned; (-)) [Compound 1, (−)-8,15-diisocyano-11(20)-amphilectene, reference compound] | 10.2 | 32174 | 83117 | – | – | –
2 | CCN(CC)CCCC(C)Nc1ccnc2cc(Cl)ccc12 (centres unmarked) [CQ, chloroquine, reference compound] | – | – | – | 4518 | 21511 | –
3 | C=C1CC[C@@]2(N=C=S)[C@H]3[C@H](CC[C@@H]2C)[C@@H](C)C[C@@H](CC(C)(C)N=C=S)[C@H]13 [Compound 2, 8,15-Diisothiocyano-11(20)-amphilectene] | – | >9 | >8 | – | – | >1.0
4 | C=C1CC[C@@]2(N=C=[Se])[C@H]3[C@H](CC[C@@H]2C)[C@@H](C)C[C@@H](CC(C)(C)N=C=[Se])[C@H]13 [Compound 5, 8,15-Diisoselenocyano-11(20)-amphilectene] | 12.4 | 7356 | 19420 | – | – | –
5 | C=C(C)C[C@@H]1C[C@H](C)[C@H]2CC[C@H](C)[C@@]3(N=C=[Se])CCC(=C)[C@@H]1[C@H]23 [Compound 6, 8-Isoselenocyanoamphilecta-11(20),15-diene] | – | – | – | 639 | 505 | 45.3

Where two headings read alike, the source gives them in different places.
